Pooled drug test results. Numbers come from NIAID ChemDB, via PubChem.

All rows: growth or infection tests; agent: Mycobacterium smegmatis; endpoint: inhibition

Percent inhibition refers to the dose given; in toxicity tests it is the harm to the cells. Conditions beyond the fields shown may differ between rows. Blank or dashed fields: not listed here.

CC(C)NCCNC(C)C ; strain or isolate: ATCC 607 ; dose: 60 µg/mL ; result: 100%
Cc1nc(-c2ccccc2)sc1-c1cn2cc(Cl)ccc2n1 ; strain or isolate: mc2155 ; method: broth dilution / absorbance ; dose: 30 µM ; result: 9.8%
N#Cc1c(N)oc(-c2ccccc2)c1-c1ccccc1 ; method: resazurin ; dose: 50 µg/mL ; result: 32%
Cc1c(C(=O)NN2CCCCC2)nn(-c2ccc(Cl)cc2Cl)c1-c1ccccc1 ; strain or isolate: mc2155 ; method: agar ; dose: 30 µM ; result: 32.37%
Cc1ccc(-c2nc(C)c(-c3cn4cc(Br)ccc4n3)s2)cc1 ; strain or isolate: mc2155 ; method: broth dilution / absorbance ; dose: 30 µM ; result: 4.7%
CC(C)NCCCCNC(C)C ; strain or isolate: ATCC 607 ; dose: 1000 µg/mL ; result: 0%
Cc1c(C(=O)N2CCN(C)CC2)nn(-c2ccc(Cl)cc2Cl)c1-c1ccc(Cl)cc1 ; strain or isolate: mc2155 ; method: agar ; dose: 30 µM ; result: 14.5%
Cc1nc(-c2ccccc2)sc1-c1cn2ccccc2n1 ; strain or isolate: mc2155 ; method: broth dilution / absorbance ; dose: 30 µM ; result: 2.5%
CCC(C)NCCNC(C)CC ; strain or isolate: ATCC 607 ; dose: 125 µg/mL ; result: 100%
N#Cc1c(NC(=O)c2ccccc2)oc(-c2ccccc2)c1-c1ccccc1 ; method: resazurin ; dose: 50 µg/mL ; result: 13%
Cc1c(C(=O)NN2CCCCC2)nn(-c2ccccc2)c1-c1ccc(Cl)cc1 ; strain or isolate: mc2155 ; method: agar ; dose: 30 µM ; result: 99.7%
C1CCC(NCCNC2CCCC2)C1 ; strain or isolate: ATCC 607 ; dose: 250 µg/mL ; result: 100%
Cc1nc(-c2ccc(Cl)cc2)sc1-c1cn2cc(Br)ccc2n1 ; strain or isolate: mc2155 ; method: broth dilution / absorbance ; dose: 30 µM ; result: 4.4%
CCOC(=O)c1nn(-c2ccccc2)c(-c2ccc(Cl)cc2)c1C ; strain or isolate: mc2155 ; method: agar ; dose: 30 µM ; result: 22.7%
Cc1nc(-c2ccc(F)cc2)sc1-c1cn2cc(Br)ccc2n1 ; strain or isolate: mc2155 ; method: broth dilution / absorbance ; dose: 30 µM ; result: 50.5%
CCCCNCCNCCCC ; strain or isolate: ATCC 607 ; dose: 250 µg/mL ; result: 0%
CCOC(=O)c1nn(-c2ccc(Cl)cc2Cl)c(-c2ccc(Cl)cc2)c1C ; strain or isolate: mc2155 ; method: agar ; dose: 30 µM ; result: 14.07%
CC(C)CC(C)NCCNC(C)CC(C)C ; strain or isolate: ATCC 607 ; dose: 250 µg/mL ; result: 0%
O=C1NC(=S)S/C1=C/c1ccc(-c2cccc(C(F)(F)F)c2)o1 ; method: broth dilution / turbidity ; dose: 1 µM ; result: 72%

2 of the rows above, restated:

SMILES | strain or isolate | method | dose | result
CCCCNCCNCCCC | ATCC 607 |  | 250 µg/mL | 0%
O=C1NC(=S)S/C1=C/c1ccc(-c2cccc(C(F)(F)F)c2)o1 |  | broth dilution / turbidity | 1 µM | 72%